A mixed list of measured activities; the numbers were collected in NIAID ChemDB.

All rows: whole-cell or culture tests; species: Cryptococcus neoformans; endpoint: MIC

Lines come from different laboratories, so protocols vary. An empty or dashed field is not shown.

compound	strain or isolate	value
C[C@H](n1nnnc1CCN1CCN(c2cccc(C(F)(F)F)c2)CC1)[C@](O)(Cn1cncn1)c1ccc(F)cc1F	LA314	0.25 µg/mL
CC(=O)OCC1=C(C(=O)O)N2C(=O)C(NC(=O)CC(=O)N(C)c3ccccc3)C2SC1	-	>250 µg/mL
Cc1ccc(C(Cn2ccnc2)OC/C=C/c2ccccc2)cc1	-	>128 µg/mL
C[C@H]1[C@H](O)[C@@H](C)/C=C/C=C/C=C/C=C/C=C/C=C/C=C/[C@H](O[C@@H]2O[C@H](C)[C@@H](O)[C@H](N)[C@@H]2O)C[C@@H]2O[C@](O)(C[C@@H](O)C[C@@H](O)CC[C@H](O)[C@@H](O)C[C@@H](O)CC(=O)O[C@H]1C)C[C@H](O)[C@H]2C(=O)O	A25838	0.13 µg/mL
CC[C@@H]([C@H](C)O)n1ncn(-c2ccc(N3CCN(c4ccc(OC[C@@H]5CO[C@@](Cn6cncn6)(c6ccc(F)cc6F)C5)cc4)CC3)cc2)c1=O	DUMC100.91	0.125 µg/mL
CCCCCCC#CCCCCCCCC(=O)O	ATCC66031	10.8 µM
CC(N1CCN(c2ccc(-n3ncnn3)cc2)C1=O)C(O)(Cn1cncn1)c1ccc(F)cc1F	TIMM1855	0.06 µg/mL
Cc1ccccc1C(Cc1ccc(Cl)cc1Cl)Cn1ccnc1	-	10 µg/mL
COC(=O)[C@@H]1N=C1/C=C\CCCCCCCCCCCCC(C)(C)C	var. gatti	>64 µg/mL
CCN(CC)C(=O)SCC(=O)NC1C(=O)N2C(C(=O)O)=C(COC(C)=O)CSC12	-	63 µg/mL
CCCCCCCCCCCCCCCC1=N[C@H]1C(=O)OC	var. gatti	2 µg/mL
C=C1/C=C(\C)[C@H](CC)OC(=O)[C@H](C)C(=O)C(O)(CO)C/C(OC)=C/[C@@H](C)C1	MY1146	0.001 µg/mL
OCC1c2ccccc2SC1c1ccc2c(c1)OCO2	93/V	25 µg/mL
CCCCCCC#CCCCCCC#CC(=O)O	ATCC66031	<5.8 µM
CCSc1ssc(=S)c1-c1ccccc1	ATCC 32264	250 µg/mL
C[C@H](n1nnnc1CCN1CCN(Cc2ccccc2)CC1)[C@](O)(Cn1cncn1)c1ccc(F)cc1F	LA314	>16 µg/mL
CC(=O)OCC1=C(C(=O)O)N2C(=O)C(NC(=O)CSC(=O)N3CCCCC3)C2SC1	-	>250 µg/mL
CCCCCCCCCCCCSc1cc(=S)ss1	ATCC 32264	250 µg/mL
Clc1ccc(CC(Cn2ccnc2)c2ccccc2Cl)c(Cl)c1	-	<1 µg/mL
CC(=O)OCC1=C(C(=O)O)N2C(=O)C(NC(=O)CSC(=S)N3CCCCC3)C2SC1	-	>250 µg/mL
C[C@@H](n1cnc2cc(Cl)ccc2c1=O)[C@](O)(Cn1cncn1)c1ccc(F)cc1F	Isolate 119.95	0.0024 µg/mL
Clc1ccc(C(Cn2ccnc2)OCc2cccc3ccccc23)cc1	-	>128 µg/mL
COC(/C=C/c1ccccc1)=C1/C(=O)C=C(C)C1=O	ATCC 90113	6.25 µg/mL
CC(C)(C)c1ccc(COC(Cn2ccnc2)c2ccc(Cl)cc2Cl)cc1	-	>128 µg/mL
COc1cccc(-c2sc3ccccc3c2CO)c1O	Farwania	50 µg/mL
O=C1c2c(O)ccc(O)c2C(=O)c2c(NCCNCCO)ccc(NCCNCCO)c21	Clinical isolate (capsule-negative)	24.2 µM
C[C@H]1[C@H](O)[C@@H](C)/C=C/C=C/C=C/C=C/C=C/C=C/C=C/[C@H](O[C@@H]2O[C@H](C)[C@@H](O)[C@H](N)[C@@H]2O)C[C@@H]2O[C@](O)(C[C@@H](O)C[C@@H](O)CC[C@H](O)[C@@H](O)C[C@@H](O)CC(=O)O[C@H]1C)C[C@H](O)[C@H]2C(=O)O	316	2 µg/mL
C[C@H](n1nnnc1CCN1CCN(c2ccccc2Cl)CC1)[C@](O)(Cn1cncn1)c1ccc(F)cc1F	LA314	8 µg/mL
CCSSc1ssc(=S)c1OC	ATCC 32264	12.5 µg/mL
C[C@H](n1nnc(CCN2CCN(C(c3ccccc3)c3ccccc3)CC2)n1)[C@](O)(Cn1cncn1)c1ccc(F)cc1F	LA314	8 µg/mL
CC(C)=CCC1=CC(=O)C(=O)C(C)=C1O	ATCC90112	75 µg/mL
CCCCc1ccccc1N1CCN(CCc2nnnn2[C@@H](C)[C@](O)(Cn2cncn2)c2ccc(F)cc2F)CC1	LA314	0.5 µg/mL
CC(=O)[C@]1(O)Cc2c(O)c3c(c(O)c2[C@@H](O[C@H]2C[C@H](N)[C@H](O)[C@H](C)O2)C1)C(=O)c1ccccc1C3=O	NCPF 3379	13.4 µM
S=c1cc(Sc2ccccc2)ss1	ATCC 32264	6.25 µg/mL
Clc1ccc(CC(Cn2ccnc2)c2ccc(Cl)cc2Cl)c(Cl)c1	-	<1 µg/mL
CC(N1CCN(c2ccc(-n3cncn3)cc2)C1=O)C(O)(Cn1cncn1)c1ccc(F)cc1F	TIMM1855	0.13 µg/mL
CC(C)(C)CSc1cc(=S)ss1	ATCC 32264	6.25 µg/mL
C[C@H](n1nnnc1CCN1CCN(c2ccc(Cl)cc2)CC1)[C@](O)(Cn1cncn1)c1ccc(F)cc1F	LA314	2 µg/mL
C=C1CCN(C(C)C(O)(Cn2cncn2)c2ccc(F)cc2F)CC1	KC-201	0.2 µg/mL
Clc1ccc(CCC(Cn2ccnc2)c2ccc(Cl)cc2Cl)cc1	-	<1 µg/mL
CN(C)c1ccc(C2Sc3ccccc3C2CO)cc1	93/V	50 µg/mL
CCCCCCCCCCCCC/C=C/C1=N[C@H]1C(=O)OC	var. gatti	8 µg/mL
C[C@H](n1nnc(CCN2CCN(c3ccc([N+](=O)[O-])cc3)CC2)n1)[C@](O)(Cn1cncn1)c1ccc(F)cc1F	LA314	4 µg/mL
S=c1cc(SCc2ccccc2)ss1	ATCC 32264	125 µg/mL
Cc1ccc(C(Cn2ccnc2)OCc2ccc(C(C)(C)C)cc2)cc1	-	>128 µg/mL
CC(N1CCN(c2ccc(-n3cnnn3)cc2)C1=O)C(O)(Cn1cncn1)c1ccc(F)cc1F	TIMM1855	0.06 µg/mL
CC(=O)OCC1=C(C(=O)O)N2C(=O)C(NC(=O)CSC(=S)N3CCOCC3)C2SC1	-	63 µg/mL
C=C1CCN([C@H](C)[C@](O)(Cn2cncn2)c2ccc(F)cc2F)CC1	KC-201	0.05 µg/mL
C[C@H](n1nnc(CCN2CCN(c3ccccc3)CC2)n1)[C@](O)(Cn1cncn1)c1ccc(F)cc1F	LA314	8 µg/mL
CCCCCC(=O)O[C@H]1[C@H](OC(=O)CCCCC)[C@H](OCC23C4C=C(C(C)C)C2(C(=O)O)C(C=O)(C4)[C@@H]2CC[C@@H](C)[C@H]23)O[C@H](C)[C@H]1OC	2867	>125 µg/mL
OCC1c2ccccc2SC1c1cc(Br)ccc1O	Farwania	6 µg/mL

For reference, 7 entries again:

{"compound": "C[C@H]1[C@H](O)[C@@H](C)/C=C/C=C/C=C/C=C/C=C/C=C/C=C/[C@H](O[C@@H]2O[C@H](C)[C@@H](O)[C@H](N)[C@@H]2O)C[C@@H]2O[C@](O)(C[C@@H](O)C[C@@H](O)CC[C@H](O)[C@@H](O)C[C@@H](O)CC(=O)O[C@H]1C)C[C@H](O)[C@H]2C(=O)O", "strain or isolate": "316", "value": "2 µg/mL"}
{"compound": "O=C1c2c(O)ccc(O)c2C(=O)c2c(NCCNCCO)ccc(NCCNCCO)c21", "strain or isolate": "Clinical isolate (capsule-negative)", "value": "24.2 µM"}
{"compound": "OCC1c2ccccc2SC1c1cc(Br)ccc1O", "strain or isolate": "Farwania", "value": "6 µg/mL"}
{"compound": "COC(/C=C/c1ccccc1)=C1/C(=O)C=C(C)C1=O", "strain or isolate": "ATCC 90113", "value": "6.25 µg/mL"}
{"compound": "COc1cccc(-c2sc3ccccc3c2CO)c1O", "strain or isolate": "Farwania", "value": "50 µg/mL"}
{"compound": "C[C@H](n1nnnc1CCN1CCN(c2ccccc2Cl)CC1)[C@](O)(Cn1cncn1)c1ccc(F)cc1F", "strain or isolate": "LA314", "value": "8 µg/mL"}
{"compound": "S=c1cc(Sc2ccccc2)ss1", "strain or isolate": "ATCC 32264", "value": "6.25 µg/mL"}